# Share of PSTVd stem 3 variants by leaf site

The measurements come from Wu et al. 2024 (doi:10.1371/journal.ppat.1012142).

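A pool of all variants was put on leaves of three Nicotiana benthamiana plants. Progeny were sequenced from the inoculated region (day 5), the margin of the inoculated leaf (day 10) and systemic leaves (day 12).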

Region: stem 3 of PSTVd (intermediate strain), upper and lower strand joined, each 5' to 3', the first 8 letters being the upper strand. Wild type: GUGGUUCCGGAACCGC. Varied positions (N): GUGGUUCCGNANNCNN.

Numbers give reads per thousand; 0 = not seen among the reads, higher = more abundant. Each site shows the three plants. "Pool" is the share in the plasmid pool used as inoculum, on the same scale. The inoculated region was read from the minus strand, the other sites from the plus strand.

{"sequence": "GUGGUUCCGCAGUCGA", "pool": "0.769", "inoculated region": "0.720 / 0.733 / 0.892", "leaf margin": "0 / 0.0318 / 0.361", "systemic leaves": "0 / 0 / 0"}
{"sequence": "GUGGUUCCGCAGUCGC", "pool": "0.908", "inoculated region": "0.773 / 0.690 / 0.594", "leaf margin": "0 / 0 / 0.0361", "systemic leaves": "0 / 0 / 0"}
{"sequence": "GUGGUUCCGCAGUCGG", "pool": "1.03", "inoculated region": "0.960 / 0.712 / 0.892", "leaf margin": "0.0283 / 0 / 0", "systemic leaves": "0 / 0 / 0"}
{"sequence": "GUGGUUCCGCAGUCGU", "pool": "0.662", "inoculated region": "0.853 / 0.668 / 0.622", "leaf margin": "0 / 0.700 / 0.542", "systemic leaves": "0 / 0 / 0"}
{"sequence": "GUGGUUCCGCAGUCUA", "pool": "1.12", "inoculated region": "0.853 / 0.884 / 0.757", "leaf margin": "0.453 / 0.0318 / 0.0361", "systemic leaves": "0 / 0.0369 / 0"}
{"sequence": "GUGGUUCCGCAGUCUC", "pool": "0.769", "inoculated region": "0.560 / 0.647 / 0.730", "leaf margin": "0 / 0 / 0.469", "systemic leaves": "0 / 0 / 0"}
{"sequence": "GUGGUUCCGCAGUCUG", "pool": "0.877", "inoculated region": "0.906 / 0.776 / 1.13", "leaf margin": "0 / 0.0318 / 0", "systemic leaves": "0 / 0 / 0"}
{"sequence": "GUGGUUCCGCAGUCUU", "pool": "1.43", "inoculated region": "1.07 / 0.949 / 1.19", "leaf margin": "1.61 / 1.27 / 0.289", "systemic leaves": "1.21 / 1.40 / 0.778"}
{"sequence": "GUGGUUCCGCAUACAA", "pool": "0.816", "inoculated region": "0.293 / 0.345 / 0.378", "leaf margin": "0.0283 / 0.0318 / 0", "systemic leaves": "0 / 0 / 0"}
{"sequence": "GUGGUUCCGCAUACAC", "pool": "1.09", "inoculated region": "0.373 / 0.345 / 0.297", "leaf margin": "0.0283 / 0 / 0.0722", "systemic leaves": "0 / 0 / 0"}
{"sequence": "GUGGUUCCGCAUACAG", "pool": "0.723", "inoculated region": "0.293 / 0.323 / 0.351", "leaf margin": "0.0283 / 0 / 0", "systemic leaves": "0 / 0 / 0"}
{"sequence": "GUGGUUCCGCAUACAU", "pool": "0.908", "inoculated region": "1.07 / 0.604 / 0.757", "leaf margin": "0.0283 / 0 / 0", "systemic leaves": "0 / 0 / 0"}
{"sequence": "GUGGUUCCGCAUACCA", "pool": "0.723", "inoculated region": "0.187 / 0.518 / 0.108", "leaf margin": "0 / 0 / 0", "systemic leaves": "0 / 0 / 0"}
{"sequence": "GUGGUUCCGCAUACCC", "pool": "0.677", "inoculated region": "0.213 / 0.388 / 0.378", "leaf margin": "0 / 0 / 0", "systemic leaves": "0 / 0 / 0"}
{"sequence": "GUGGUUCCGCAUACCG", "pool": "0.631", "inoculated region": "0.373 / 0.259 / 0.189", "leaf margin": "0 / 0 / 0.0361", "systemic leaves": "0 / 0 / 0"}
{"sequence": "GUGGUUCCGCAUACCU", "pool": "0.985", "inoculated region": "0.347 / 0.259 / 0.216", "leaf margin": "0 / 0 / 0", "systemic leaves": "0 / 0 / 0"}
{"sequence": "GUGGUUCCGCAUACGA", "pool": "1.25", "inoculated region": "0.373 / 0.668 / 0.540", "leaf margin": "0.0567 / 0.0636 / 0.0361", "systemic leaves": "0 / 0 / 0"}
{"sequence": "GUGGUUCCGCAUACGC", "pool": "0.739", "inoculated region": "0.506 / 0.323 / 0.297", "leaf margin": "0 / 0 / 0.0361", "systemic leaves": "0 / 0 / 0"}
{"sequence": "GUGGUUCCGCAUACGG", "pool": "0.677", "inoculated region": "0.293 / 0.367 / 0.135", "leaf margin": "0.0283 / 0 / 0", "systemic leaves": "0 / 0 / 0"}
{"sequence": "GUGGUUCCGCAUACGU", "pool": "0.800", "inoculated region": "0.480 / 0.453 / 0.324", "leaf margin": "0 / 0 / 0", "systemic leaves": "0 / 0 / 0"}
{"sequence": "GUGGUUCCGCAUACUA", "pool": "0.816", "inoculated region": "0.506 / 0.280 / 0.243", "leaf margin": "0 / 0.0318 / 0", "systemic leaves": "0 / 0 / 0"}
{"sequence": "GUGGUUCCGCAUACUC", "pool": "0.785", "inoculated region": "0.320 / 0.410 / 0.162", "leaf margin": "0 / 0 / 0", "systemic leaves": "0 / 0 / 0"}
{"sequence": "GUGGUUCCGCAUACUG", "pool": "1.54", "inoculated region": "0.800 / 0.712 / 0.676", "leaf margin": "0 / 0.0636 / 0", "systemic leaves": "0.354 / 0 / 0"}
{"sequence": "GUGGUUCCGCAUACUU", "pool": "0.939", "inoculated region": "1.09 / 0.518 / 0.784", "leaf margin": "0.170 / 0 / 0.361", "systemic leaves": "0 / 0 / 0"}
{"sequence": "GUGGUUCCGCAUCCAA", "pool": "0.939", "inoculated region": "0.426 / 0.259 / 0.216", "leaf margin": "0.0283 / 0 / 0", "systemic leaves": "0 / 0 / 0"}
{"sequence": "GUGGUUCCGCAUCCAC", "pool": "0.923", "inoculated region": "0.293 / 0.345 / 0.432", "leaf margin": "0 / 0 / 0", "systemic leaves": "0 / 0 / 0"}
{"sequence": "GUGGUUCCGCAUCCAG", "pool": "0.831", "inoculated region": "0.347 / 0.280 / 0.378", "leaf margin": "0 / 0 / 0", "systemic leaves": "0 / 0 / 0"}
{"sequence": "GUGGUUCCGCAUCCAU", "pool": "0.754", "inoculated region": "1.09 / 1.04 / 1.65", "leaf margin": "0 / 0.0318 / 0.253", "systemic leaves": "0 / 0 / 0"}
{"sequence": "GUGGUUCCGCAUCCCA", "pool": "0.985", "inoculated region": "0.213 / 0.323 / 0.162", "leaf margin": "0.0283 / 0.0318 / 0", "systemic leaves": "0 / 0 / 0"}
{"sequence": "GUGGUUCCGCAUCCCC", "pool": "1.00", "inoculated region": "0.293 / 0.259 / 0.216", "leaf margin": "0.0283 / 0.0636 / 0", "systemic leaves": "0 / 0 / 0"}
{"sequence": "GUGGUUCCGCAUCCCG", "pool": "1.00", "inoculated region": "0.320 / 0.280 / 0.189", "leaf margin": "0 / 0 / 0.0361", "systemic leaves": "0 / 0 / 0"}

4 of these entries, quoted again:

| sequence | pool | inoculated region | leaf margin | systemic leaves |
|---|---|---|---|---|
| GUGGUUCCGCAUACUU | 0.939 | 1.09 / 0.518 / 0.784 | 0.170 / 0 / 0.361 | 0 / 0 / 0 |
| GUGGUUCCGCAUACGA | 1.25 | 0.373 / 0.668 / 0.540 | 0.0567 / 0.0636 / 0.0361 | 0 / 0 / 0 |
| GUGGUUCCGCAUCCCC | 1.00 | 0.293 / 0.259 / 0.216 | 0.0283 / 0.0636 / 0 | 0 / 0 / 0 |
| GUGGUUCCGCAUACUA | 0.816 | 0.506 / 0.280 / 0.243 | 0 / 0.0318 / 0 | 0 / 0 / 0 |

With 27,691-54,225 reads a sample, very low values are single reads. Wild type was 17.3 per thousand in the pool and the most common sequence in every sample (inoculated region 330, 345, 235; leaf margin 794, 766, 816; systemic leaves 830, 792, 869). The authors trace changes outside the varied positions to PCR and sequencing errors or to mutation in the plant; presence does not show that a variant is infectious alone.